Source: the supplement of paper PMC9931576
Human monoclonal antibodies against the spike receptor-binding domain (heavy:light variable regions). IC50 against pseudoviruses bearing the spike of naturally observed variants; lower = stronger; >10 µg/ml means not reached at the top dose. No active / inactive call. The stated detection limit is 0.0005 µg/ml; values near or below 0.001 µg/ml lie at the floor of the assay.

B1: BD55-1453 (protein)
chain 1: EVQLIQSGTEVKKPGESLKISCKGSGYNFARYWIGWVRQMPGKGLEWVGIIYPGDSDTRYSPSFQGQVTISADKSINTAFLQWSSLKASDTAMYYCARRGVDMAALRVFDIWGRGTLVTVSS
chain 2: QSVLTQPPSVSEAPRQRVTISCSGSSSNIENNAVEWYQQLPGKAPKLLIYYDDLLPSGVSDRFSGSKSGTSASLAISGLQSEDEADYYCATWDDRLNGPVFGTGTKVTVL
B2: BD55-1429 (protein)
chain 1: EVQLVESGGGLVQPGGSLRLSCSASGFTFSSYAMHWVRQAPGKGLECVSSISSDGGITYYADSVKGRFTISRDNSKNTLYLEMSSLRTEDTAVYYCVKDRPVVFTLFDYWGQGTQVTVSS
chain 2: DIQMTQSPSSLSASVGDRVTITCRASQSISSYLNWYQQKPGKPPKLLIYAASSLQSGVPSRFSGSGSGTDFTLSISSLQPEDFATYYCQQSYTTPYTFGQGTKLEIK
B3: BD55-1464 (protein)
chain 1: EVQLVESGGGLVQPGGSLRVSCSASGFTFSSYAIHWVRQAQGKGLEYVSAISSNGDITYYADSVKGRFFISRDNSKNTVYLQMSSLRAEDTAVYYCVKDVWGSYTYFDFWGQGTLVTVSS
chain 2: DIQLTQSPSSLSASVGDRVTITCRARQSITGYLNWYQQKPGKAPKVLIYATSTLQSGVPSRFSGSGSGTDFTLTISSLQLEDFATYWCQQSYTTPYTFGQGTKLEIK
B4: BD55-1403 (protein)
chain 1: QVQLVQSGAEMKKPGSSVKVSCQASGGTFSTYVISWVRQAPGQGLEWMGGIIPIFNTPHYAQKFQGRVTITADESTSTAYMELSSLTSGDTAVYYCARVSQWELLVYWGQGTLVTVSS
chain 2: EIVLTQSPGTLSLSPGERATLSCRASQSINSNYLAWYQQKPGQAPRLLIYGASSRATGIPDRFSGSGSGTDFTLTISRLEPEDFAVYYCQQYGVSPRWTFGQGTKVEIK
B5: BD55-1391 (protein)
chain 1: QVQLQESGPGLVRPSQTLSLTCNASGVSISGGGYYWSWIRQHPGKGLEWIGYIHYSGNTYYNPSLKSRVSISVDASKNQFSLRLSSVTAADTAVYYCARVGDFDWLDYWGQGTLVTVSS
chain 2: EIVLTQSPATLSLSPGERATLSCRASQSIGSYLAWFQQKPGQAPRLLIYDASYRATGIPARFSGSGSGTDFTLTISSLEPDDFAIYHCQQRFNWPPITFGQGTRLEIK
B6: BD55-1411 (protein)
chain 1: QVQLVESGGGVVQPGRSLRLSCAASGFSFSNYGMHWVRQAPGKGLEWVSLIWYDGSSKYYADSVKGRFTISRDNSKNTMYLHMNSLSAEDTAVYYCARDPRYYDSTGYYNAQYYFDYWGQGTLVTVSS
chain 2: EIVLTQSPATLSLSPGERATLSCRASQSVSSYVAWYQQKPGQAPRLLIGDASNRATGIPARFSASGSGTDFTLTISSLEPEDFAVYYCQQRSNWLWTFGQGTKVEVK
B7: BD55-1472 (protein)
chain 1: QITLKESGPTLVKPTQTLTLTCSFSGFSLSTNGMGVGWIRQPPGKALEWLALIYWNDEKRYSPSVKTRLTITKGPSNYQVVLTMTNMDPVDTATYYCGHTYYYDNSGYSFDHWGPGTLVTVSS
chain 2: DIQMTQSPSSVSASVGDRVTITCRASQDIITWLAWYQQKPGKAPKLLIYDASILQSGVPSRFSGSGSGTDFTLTINSLQSEDFATYYCQQTNNFPVTFGQGTRLE
B8: BD55-1451 (protein)
chain 1: EVQLVESGGGLIQPGGSLRLSCTASGVIVSKNYMNWVRQAPGKGLEWVSLIYSGGSTFYADSVRGRFTISRDNSKNTLYLQMNSLRAEDTAVYYCARDLVVYGMDVWGQGTTVTVSS
chain 2: DIQLTQSPSFLSAFVGDRVTITCRASQGISNYLAWYQQKPGKAPKLLIYGASTLQSGVPSRFSGSGSGTDFTLTISSLQPEDFATYYCQLLNSDRYTFGQGTKLEIK
B9: BD55-1405 (protein)
chain 1: QVQLQEWGPGLVKPSQTLSLTCTVSGGSISGTSYYWSWIRQPAGKGLEWIGRIYYRGSTYYNPSLKSRVTISVDTSKNQFSLRLNSVTAADTAVYYCARDSSLYSGYDSHDYWGQGTPVTVSS
chain 2: DIQMTQSPSSLSASVGDRVTITCRASQTISNYLNWYQQRPGKAPKLLIYGAASLHSGVPSRFSVSGSGTDFTLTINNLQPEDFATYYCQQTYRTPPTFGGGTKVEIK
B10: BD55-1445 (protein)
chain 1: QVQLQESGPGLVKPSETLSLTCTVSGGSITSYYWSWIRQPPGKGLEWIGYIYYSGSTDYNPSLESRVTISVDTSKSQFSLKLTSVTAADTAVYYCARMRGAAGPNYYYYYAMDVWGQGTTVTVSS
chain 2: EIVMTQSPATLSVSPGERATLSCRASQSLSSNLAWYQQKPGQAPRLLIYGASTRATGIPARFSGSGSGTEFTLTISSLQSEDFAVYYCQQYGRTFGQGTKVEIK
B11: BD55-1450 (protein)
chain 1: QVQLVQSGAEVKKPGSSVRVSCKVSGGTFSSYTISWVRQAPGQGLEWMGRIIPILDVANYPQKFQGRVTITADKSTSTAYMELSSLRSEDTAVYYCARLRYGSGLPYGVDVWGQGTTVTVSS
chain 2: DVQMTQSPSSLSASIGDRVTITCQASQDISNYLNWYQQKPGKAPNPLIYDASNLERGVPSRFSGSGSGTEFTFTISSLQPEDIATYYCQQYDNLPWTFGQGTKVEIK
B12: BD55-1432 (protein)
chain 1: EVQLVESGGGLVQPGRSLRLSCAASGFNFDDYAMYWVRQAPGKGLEWVSGISWNSGTIGYADSVKGRFTISRDNAENSLYLQMNRLRAEDTALYYCAKDIEALEGYNGSYGFDYWGQGTLVTVSS
chain 2: QSALTQPASVSGSPGQSITISCTGTSSDVGVYNYVSWYQQHPGKAPKLMIYDVSKRPSGVSNRFSGSKSGNTASLTISGLQAEDEADYYCSSYTSSSTLKFGGGTKLTVL
B13: BD55-1346 (protein)
chain 1: EVQMVESGGGLVQPGGSLRLSCAVSGFTVTRNYMSWVRQTPGRGLEWVSIIYPGGSTFYADSVKGRFTISRDNSNNTLFLQMNSLRIEDTAVYYCAREYRGHSWGQGTLVTVSS
chain 2: DIQMTQSPSSLSASVGDRVTITCQASQGITNTLNWFQQKPGKAPKLLIYDASNLDSGVPSRFSGSGYGTDFTFTISSLQPEDIATYFCQQYDNLPITFGPGTKVNI

molecular target: SARS-CoV-2 Omicron BA.1 spike pseudovirus; assay: pseudovirus neutralization IC50; higher = weaker neutralization
Description: (§1)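 Single-round VSV luciferase pseudovirus mixed with antibody dilutions for 1 h and put on Huh-7 cells for about a day; IC50 from the dose curve.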

Binder	pseudovirus neutralization IC50
B1	1.87 µg/mL
B2	> 10 µg/mL
B3	> 10 µg/mL
B4	> 10 µg/mL
B5	> 10 µg/mL
B6	> 10 µg/mL
B7	0.654 µg/mL
B8	0.286 µg/mL
B9	> 10 µg/mL
B10	> 10 µg/mL
B11	> 10 µg/mL
B12	> 10 µg/mL
B13	0.0968 µg/mL

molecular target: SARS-CoV-2 Omicron BA.2 spike pseudovirus; assay: as above
Description: as §1

Binder	pseudovirus neutralization IC50
B1	1.21 µg/mL
B2	> 10 µg/mL
B3	> 10 µg/mL
B4	> 10 µg/mL
B5	> 10 µg/mL
B6	> 10 µg/mL
B7	0.4 µg/mL
B8	0.26 µg/mL
B9	> 10 µg/mL
B10	> 10 µg/mL
B11	> 10 µg/mL
B12	> 10 µg/mL
B13	0.0841 µg/mL

molecular target: SARS-CoV-2 Omicron BA.2.75 spike pseudovirus; assay: as above
Description: as §1

Binder	pseudovirus neutralization IC50
B1	1.31 µg/mL
B2	> 10 µg/mL
B3	> 10 µg/mL
B4	> 10 µg/mL
B5	> 10 µg/mL
B6	> 10 µg/mL
B7	0.255 µg/mL
B8	2.5 µg/mL
B9	> 10 µg/mL
B10	> 10 µg/mL
B11	> 10 µg/mL
B12	> 10 µg/mL
B13	> 10 µg/mL

molecular target: SARS-CoV-2 Omicron BA.5 spike pseudovirus; assay: as above
Description: as §1

Binder	pseudovirus neutralization IC50
B1	2.5 µg/mL
B2	> 10 µg/mL
B3	> 10 µg/mL
B4	> 10 µg/mL
B5	> 10 µg/mL
B6	> 10 µg/mL
B7	0.329 µg/mL
B8	0.145 µg/mL
B9	> 10 µg/mL
B10	> 10 µg/mL
B11	> 10 µg/mL
B12	> 10 µg/mL
B13	0.0538 µg/mL

molecular target: SARS-CoV-2 Omicron BQ.1.1 spike pseudovirus; assay: as above
Description: as §1

Binder	pseudovirus neutralization IC50
B1	2.61 µg/mL
B2	> 10 µg/mL
B3	> 10 µg/mL
B4	> 10 µg/mL
B5	> 10 µg/mL
B6	> 10 µg/mL
B7	0.803 µg/mL
B8	> 10 µg/mL
B9	> 10 µg/mL
B10	> 10 µg/mL
B11	> 10 µg/mL
B12	> 10 µg/mL
B13	> 10 µg/mL

molecular target: SARS-CoV-2 Omicron XBB spike pseudovirus; assay: as above
Description: as §1

Binder	pseudovirus neutralization IC50
B1	1.29 µg/mL
B2	> 10 µg/mL
B3	> 10 µg/mL
B4	> 10 µg/mL
B5	> 10 µg/mL
B6	> 10 µg/mL
B7	0.791 µg/mL
B8	> 10 µg/mL
B9	> 10 µg/mL
B10	> 10 µg/mL
B11	> 10 µg/mL
B12	> 10 µg/mL
B13	> 10 µg/mL

molecular target: SARS-CoV-2 early D614G spike pseudovirus; assay: as above
Description: as §1

Binder	pseudovirus neutralization IC50
B1	1.49 µg/mL
B2	0.423 µg/mL
B3	> 10 µg/mL
B4	0.002 µg/mL
B5	> 10 µg/mL
B6	0.0677 µg/mL
B7	2.34 µg/mL
B8	0.00173 µg/mL
B9	0.0741 µg/mL
B10	> 10 µg/mL
B11	0.0238 µg/mL
B12	1.43 µg/mL
B13	0.0312 µg/mL
